Compound potency records, mixed from different reports. Data source: NIAID ChemDB in PubChem.

Shared fields: tests in culture; organism: Measles virus

Neighbouring rows are from separate reports. Blank or dashed fields: not listed here. ECn: concentration that inhibits the pathogen or its effect by n%.

smiles | endpoint | cell line | strain | read by | result
CCCc1cc(=O)oc2cc(OC(=O)C(C)(C)C)c3c(c12)OC(C)(C)C=C3 | EC50 | CV-1 | MO2 | cytopathic effect | 1 µg/mL
CSc1nsc(-c2cc[n+](C)cc2)c1C#N | EC50 | HEP-2 | Edmonston | plaque count | >1000 µM
Nc1ncnc2c1ncn2[C@H]1C[C@@H](N)[C@H](O)[C@@H]1O | EC50 | CV-1 | - | cytopathic effect | >100 µg/mL
Nc1nc(=O)c2nc(-c3ccccc3)n([C@@H]3O[C@H](CO)[C@@H](O)[C@H]3O)c2c(=O)[nH]1 | EC50 | CV-1 | - | cytopathic effect | 10 µM
Nc1ncnc2c1ncn2[C@@H]1C[C@H](N)[C@@H](O)[C@H]1O | EC50 | CV-1 | SA | cytopathic effect | >100 µg/mL
S=c1cc(-c2ccccc2)s[nH]1 | EC50 | HEP-2 | Edmonston | plaque count | >90 µM
Nc1ncnc2c1ncn2[C@@H]1CC[C@@H](O)[C@H]1O | EC50 | CV-1 | Edmonston | cytopathic effect | >64 µg/mL
CCCc1cc(=O)oc2cc(OC(=O)CC)cc(O)c12 | EC90 | CV-1 | Chicago-1 | virus yield | 40 µg/mL
Nc1ncnc2c1ncn2[C@@H]1C=C[C@@H](O)[C@H]1O | EC50 | CV-1 | Halonen | neutral red | <0.1 µg/mL
N#Cc1c(-c2ccccc2)nsc1Cl | EC50 | HEP-2 | Edmonston | plaque count | >20 µM
Nc1nc(=O)c2ncn([C@@H]3O[C@H](CO)[C@@H](O)[C@H]3O)c2c(=O)[nH]1 | EC50 | CV-1 | - | neutral red | >100 µM
CCCc1cc(=O)oc2cc(OS(=O)(=O)c3ccc(C)cc3)cc(OS(=O)(=O)c3ccc(C)cc3)c12 | EC50 | CV-1 | MO6 | cytopathic effect | 0.5 µg/mL
CSc1nsc(-c2cccc3ccccc23)c1C#N | EC50 | HEP-2 | Edmonston | plaque count | >4 µM
CCCc1cc(=O)oc2c3c(c4c(c12)OC(C)(C)[C@H](O)[C@@H]4O)O[C@H](C)[C@@H](C)[C@@H]3O | EC50 | CV-1 | Chicago-1 | cytopathic effect | 5 µg/mL
CSc1nsc(-c2cccnc2)c1C#N | EC50 | HEP-2 | Edmonston | plaque count | >20 µM

Repeating the first 2 entries:

CCCc1cc(=O)oc2cc(OC(=O)C(C)(C)C)c3c(c12)OC(C)(C)C=C3 ; endpoint: EC50 ; cell line: CV-1 ; strain: MO2 ; read by: cytopathic effect ; result: 1 µg/mL
CSc1nsc(-c2cc[n+](C)cc2)c1C#N ; endpoint: EC50 ; cell line: HEP-2 ; strain: Edmonston ; read by: plaque count ; result: >1000 µM